Compound potency records, mixed from different reports. Data source: NIAID ChemDB in PubChem.

Common to all: host cell toxicity; cells: CEM; endpoint: CC50

CCn: concentration that lowers growth or viability of the cells by n%. An empty or dashed field is not shown. Conditions beyond the fields shown may differ between rows.

smiles,method,result
COC1=C(C2=C(C3=C(O)C(=O)c4ccccc4C3=O)C(=O)c3ccccc3C2=O)C(=O)c2ccc3c(c2C1=O)C=CC(C)(C)O3,MTT,14.2 µM
CCC(CC)OC(=O)c1cc(NC(=S)c2ccoc2C)ccc1Cl,,16 µg/mL
NCC1(c2ccc(OCc3ccccc3)cc2)CCC(=O)N1Cc1ccccc1,absorbance,23.6 µM
C=C(C)COC(=O)c1cc(NC(=O)c2ccoc2C)ccc1Cl,,3.7 µg/mL
COCCNC(=O)COC(=O)c1c2c(nc3ccccc13)/C(=C\c1ccc(OC)cc1)CCC2,propidium iodide,>25 µM
O=C1C(=O)c2ccccc2C(O)=C1C1=C(Br)C(=O)c2ccccc2C1=O,MTT,5.2 µM
Cc1cc(CS(=O)(=O)c2cccc[n+]2[O-])ccc1[N+](=O)[O-],cell count,4.9 µg/mL
C/C=C/CSc1cc(NC(=S)c2ccsc2C)ccc1Cl,,5.1 µg/mL
CC(=O)ONc1ccc(S(=O)(=O)N(Cc2ccccc2)C[C@@H](O)[C@H](Cc2ccccc2)NC(=O)[C@H](CC(C)C)N2C(=O)c3ccccc3C2=O)cc1,MTT,>100 µM
NC1=C(C2=C(Cl)C(=O)c3ccccc3C2=O)C(=O)c2ccccc2C1=O,MTT,5.7 µM
Cc1c(N)nc(N)nc1OCCOCP(=O)(O)O,microscopy,10 µM
CCCCCCCCCCCCCCCCOCCCOP(=O)(O)COCCn1cnc2c(=O)[nH]c(N)nc21,neutral red,0.43 µM
COc1ccc2nc(Cl)c(/C=C/C(=O)c3cc(C)cs3)cc2c1,MTS,15 µM
Cc1ccc(C)c(C(C)Sc2cccc[n+]2[O-])c1,cell count,74 µg/mL
COc1nc(N)c2ncn([C@H]3C[C@H](N=[N+]=[N-])[C@@H](CO)O3)c2n1,MTS,>100 µM
CC(=O)ONc1ccc(S(=O)(=O)N(CC(C)C)C[C@@H](O)[C@H](Cc2ccccc2)NC(=O)CCCc2c[nH]c3ccccc23)cc1,MTT,86.2 µM
Cc1ccc(CS(=O)c2cccc[n+]2[O-])cc1,cell count,11 µg/mL
COc1ccc2nc(Cl)c(/C=C/C(=O)c3sccc3C)cc2c1,MTS,10.6 µM
N#C/C(=C/c1ccc(Cl)cc1Cl)S(=O)(=O)c1cccc[n+]1[O-],cell count,8.1 µg/mL
N[C@H]1C(=O)N[C@@H]2Cc3ccc(c(Cl)c3)Oc3cc4cc(c3O)Oc3ccc(cc3Cl)[C@@H](O)[C@@H]3NC(=O)[C@H](NC(=O)[C@@H]4NC(=O)[C@@H](NC2=O)c2cc(O)cc(c2)Oc2cc1ccc2O)c1ccc(O)c(c1)-c1c(O)cc(O)cc1[C@@H](C(=O)C1NCCC2CCCCC21)NC3=O,cell count,>250 µM
COc1ccc2c(c1)C(=O)C(C1=C(O)c3ccccc3C(=O)C1=O)=C(Cl)C2=O,MTT,10 µM
Cc1occc1C(=S)Nc1ccc(Cl)c(C(=O)OC(C(C)C)C(C)C)c1,,3.7 µg/mL
CN[C@H]1C(=O)N[C@@H]2Cc3ccc(cc3)Oc3cc4cc(c3O)Oc3ccc(cc3Cl)[C@@H](O)[C@@H]3NC(=O)[C@H](NC(=O)[C@@H]4NC(=O)[C@@H](NC2=O)c2cc(cc(O)c2Cl)Oc2cc1ccc2O)c1ccc(O)c(c1)-c1c(O)cc(O)cc1[C@@H](C(=O)O)NC3=O,cell count,>500 µM
CO/N=C/c1cc(NC(=S)c2ccoc2C)ccc1OC,,>100 µg/mL
C/C(=N\NC(=O)CN1c2c(-c3ccccc3)n[nH]c2-c2ccccc2S1(=O)=O)c1ccncc1,MTS,34.5 µM
COC(=O)[C@H]1NC(=O)[C@H]2NC(=O)[C@H](NC(=O)[C@@H]3NC(=O)[C@H]4NC(=O)[C@@H](Cc5ccc(c(Cl)c5)Oc5cc3cc(c5O)Oc3ccc(cc3Cl)[C@H]2O)NC(=O)[C@H](N)c2ccc(O)c(c2)Oc2cc(O)cc4c2)c2ccc(O)c(c2)-c2c(O)cc(O)cc21,cell count,248 µM
COc1ccc2c(c1)C(=O)C(I)=C(C1=C(O)c3ccccc3C(=O)C1=O)C2=O,MTT,7.5 µM
CCCCCCCCCCCCCC(=O)OCC(NC(C)=O)C(OCC)OCC,trypan blue,>100 µM
C=CNC(=O)COC(=O)c1c2c(nc3ccccc13)/C(=C\c1cccc(OC)c1OC)CCC2,propidium iodide,>25 µM
CC1=C(C(=O)Nc2ccc(Cl)c(C(=O)OC(C(C)C)C(C)C)c2)SCCO1,,5.8 µg/mL
NC(N)=NC(=O)c1ccc(N2CCCCCC2)nc1,ATP / luminescence,128 µM
O=C(O)c1ccc(CS(=O)(=O)c2cccc[n+]2[O-])cc1,cell count,>100 µg/mL
CCCCCCCCCCCCCC(=O)NC(CO)C(=O)O,trypan blue,>80 µM
C=C(C)[C@@H]1CC[C@]2(C(=O)NCCCCCCCCCCC(=O)O)CC[C@]3(C)[C@H](CC[C@@H]4[C@@]5(C)CC[C@H](O)C(C)(C)[C@@H]5CC[C@]43C)[C@@H]12,,>3 µM
COc1ccc2nc(Cl)c(/C=C/C(=O)c3ccsc3)cc2c1,MTS,1.8 µM
[O-][n+]1ccccc1SCc1ccccc1,cell count,>100 µg/mL
COC(=O)CC1(O)C(O[Si](C)(C)C(C)(C)C)[C@H](n2ccc(=O)[nH]c2=O)O[C@@H]1CO[Si](C)(C)C(C)(C)C,propidium iodide / flow cytometry,4.8 µM
CC(C)C(OC(=O)c1cc(NC(=S)c2cccn2C)ccc1Cl)C(C)C,,>100 µg/mL
Cc1ccc(C)c(C(C)S(=O)(=O)c2c(C)ccc[n+]2[O-])c1,cell count,38 µg/mL
COc1ccc(C(=O)N2CCCC2(C#N)c2ccccc2)cc1[N+](=O)[O-],absorbance,>100 µM
CC(C)OC(=O)c1cc(NC(=O)c2ccccc2)ccc1Cl,,6.2 µg/mL
C=C(C)[C@@H]1CC[C@]2(C(=O)NCCCCCCCC(=O)NCCCCC(=O)O)CC[C@]3(C)[C@H](CC[C@@H]4[C@@]5(C)CC[C@H](O)C(C)(C)[C@@H]5CC[C@]43C)[C@@H]12,,>3 µM
COc1cccc(/C=C2/CCc3c2nc2ccccc2c3C(=O)OC(C)C(=O)NC(N)=O)c1OC,propidium iodide,>25 µM
CCCCc1ccc(CNCc2c(O)cc3c(c2O)-c2cc(ccc2O)[C@H]2NC(=O)[C@@H]4NC(=O)[C@H]5NC(=O)[C@@H](Cc6ccc(c(Cl)c6)Oc6cc4cc(c6O)Oc4ccc(cc4Cl)[C@@H](O)[C@H](NC2=O)C(=O)N[C@@H]3C(=O)O)NC(=O)[C@H](NC(=O)OC(C)(C)C)c2ccc(O)c(c2)Oc2cc(O)cc5c2)cc1,cell count,60 µM
COc1cccc(/C=C2/CCCc3c2nc2ccccc2c3C(=O)OCC(=O)NC(N)=O)c1OC,propidium iodide,>25 µM
N#CC1(c2ccccc2)CCCN1C(=O)c1ccccc1Br,absorbance,>100 µM
Cc1ccccc1CS(=O)(=O)c1c(C)ccc[n+]1[O-],cell count,17 µg/mL
Cc1sccc1C(=S)Nc1ccc(Cl)c(SCC(=O)OC(C)(C)C)c1,,5.4 µg/mL
Cc1c(Cl)c(Cl)c(CS(=O)(=O)c2cccc[n+]2[O-])c(Cl)c1Cl,cell count,2 µg/mL
Cc1ccc2nc(Cl)c(/C=C/C(=O)c3cc(C)sc3C)cc2c1,MTS,11.6 µM
C=CNC(=O)COC(=O)c1c2c(nc3ccccc13)/C(=C\c1cccs1)CCC2,propidium iodide,2 µM
[N-]=[N+]=N[C@@H]1C[C@@H](n2cc(F)c(N)nc2=O)O[C@H]1CO,trypan blue,>100 µM
O=C(OC1CCCCC1)c1cc(NC(=S)c2ccccc2F)ccc1Cl,,19 µg/mL
Cc1ccc(N2C(=O)CCC2(C#N)c2ccc(OCc3c(Cl)cccc3Cl)cc2)cc1,absorbance,16.6 µM
O=C(N[C@H]1C(=O)N[C@@H]2Cc3ccc(c(Cl)c3)Oc3cc4cc(c3O)Oc3ccc(cc3Cl)[C@@H](O)[C@@H]3NC(=O)[C@H](NC(=O)[C@@H]4NC(=O)[C@@H](NC2=O)c2cc(O)cc(c2)Oc2cc1ccc2O)c1ccc(O)c(c1)-c1c(O)cc(O)cc1[C@@H](C(=O)O)NC3=O)OCC1c2ccccc2-c2ccccc21,cell count,114 µM
C=C(C)[C@@H]1CC[C@]2(C(=O)NCCCCCCCNC(=O)CCCC(=O)O)CC[C@]3(C)[C@H](CC[C@@H]4[C@@]5(C)CC[C@H](O)C(C)(C)[C@@H]5CC[C@]43C)[C@@H]12,,>3 µM
C/C(=N\NC(=O)CN1c2c(-c3ccccc3)n[nH]c2-c2ccccc2S1(=O)=O)c1cc2ccccc2oc1=O,MTS,27.8 µM
Cc1cc(C)cc(N2C(=O)CCC2(C#N)c2c(Cl)cccc2Cl)c1,absorbance,20.3 µM
O=S(Cc1cccc(C(F)(F)F)c1)c1cccc[n+]1[O-],cell count,54 µg/mL
Cc1sccc1C(=S)Nc1ccc(Cl)c(OCC2CCCC2)c1,,4.3 µg/mL
Cc1ccc(N2C(=O)CCC2(CN)c2ccc(OCc3ccccc3)cc2)cc1,absorbance,33.7 µM
Cc1occc1C(=S)Nc1ccc(Cl)c(C(=O)OCC2CC2)c1,,6.7 µg/mL
C/C(=N\NC(=O)CN1c2c(-c3ccccc3)n[nH]c2-c2ccccc2S1(=O)=O)c1ccsc1,MTS,10.7 µM
CC(=O)ONc1ccc(S(=O)(=O)N(CC(C)C)C[C@@H](O)[C@H](Cc2ccccc2)NC(=O)CN2C(=O)c3ccccc3S2(=O)=O)cc1,MTT,>100 µM
Cc1occc1C(=S)Nc1ccc(Cl)c(/C=N/OC(C)(C)C)c1,,5.8 µg/mL
COc1ccc2c(c1)C(O)=C(C1=C(I)C(=O)c3ccccc3C1=O)C(=O)C2=O,MTT,6 µM
C/C(=N\NC(=O)CN1c2c(-c3ccccc3)n[nH]c2-c2ccccc2S1(=O)=O)c1ccc([N+](=O)[O-])s1,MTS,5 µM
CCC(CC)COC(=O)c1cc(NC(=S)c2ccoc2C)ccc1Cl,,7 µg/mL
Cc1ccc(C)c(C(Cc2ccccc2)Sc2cccc[n+]2[O-])c1,cell count,2.6 µg/mL
COc1ccc2nc(Cl)c(/C=C/C(=O)c3cc(Cl)sc3Cl)cc2c1,MTS,6.5 µM
N#CC(NCc1ccc(C=O)cc1)c1ccccc1,absorbance,20.1 µM
C/C(=N\NC(=O)CN1c2c(-c3ccccc3)n[nH]c2-c2ccccc2S1(=O)=O)c1sccc1Br,MTS,19.6 µM
Cc1ccccc1C(=O)Nc1ccc(Cl)c(C(=O)OC2CCCCC2)c1,,5.2 µg/mL
CC(C)(C)[Si](C)(C)OC[C@H]1O[C@@H](n2ccc(=O)[nH]c2=O)[C@H](O[Si](C)(C)C(C)(C)C)[C@]12O[C@@H]2CO,propidium iodide / flow cytometry,26 µM
O=C1N[C@H]2C(=O)N[C@H]3C(=O)N[C@H](C(=O)N[C@H](C(=O)O)c4cc(O)cc(O)c4-c4cc3ccc4O)[C@H](O)c3ccc(c(Cl)c3)Oc3cc2cc(c3O)Oc2ccc(cc2Cl)C[C@H]2NC(=O)[C@H](NC(=S)Nc3ccccc3)c3ccc(O)c(c3)Oc3cc(O)cc(c3)[C@@H]1NC2=O,cell count,220 µM
COc1ccc2c(c1)C(=O)C(C1=C(O)c3ccccc3C(=O)C1=O)=C(I)C2=O,MTT,9.8 µM
CC(C)(C)[Si](C)(C)OC[C@H]1O[C@@H](n2ccc(=O)[nH]c2=O)[C@H](O[Si](C)(C)C(C)(C)C)[C@@]12O[C@H]2C(N)=O,propidium iodide / flow cytometry,20 µM
CC(C)OC(=O)c1cc(NC(=S)c2ccco2)ccc1Cl,,7.4 µg/mL
Cc1ccc[n+]([O-])c1S(=O)(=O)Cc1ccccc1Cl,cell count,21 µg/mL
COC1=C(C2=C(I)C(=O)c3ccccc3C2=O)C(=O)c2ccc3c(c2C1=O)C=CC(C)(C)O3,MTT,6.3 µM
Cc1ccc(C)c(C(C)S(=O)(=O)c2ccc(C)c[n+]2[O-])c1,cell count,≥100 µg/mL
CC(=O)ONc1ccc(S(=O)(=O)N(CC(C)C)C[C@@H](O)[C@H](Cc2ccccc2)NC(=O)CCCN2C(=O)c3ccccc3C2=O)cc1,MTT,>100 µM
CC(C)=CCOc1cc(NC(=O)c2ccoc2C)ccc1Cl,,>100 µg/mL
O=S(=O)(Cc1ccc(Cl)c(Cl)c1)c1cccc[n+]1[O-],cell count,2.9 µg/mL
C#CCNc1nc(N)nc2c1ncn2[C@H]1C[C@H](N=[N+]=[N-])[C@@H](CO)O1,MTS,>100 µM

Repeating the first 6 entries:

smiles	method	result
COC1=C(C2=C(C3=C(O)C(=O)c4ccccc4C3=O)C(=O)c3ccccc3C2=O)C(=O)c2ccc3c(c2C1=O)C=CC(C)(C)O3	MTT	14.2 µM
CCC(CC)OC(=O)c1cc(NC(=S)c2ccoc2C)ccc1Cl		16 µg/mL
NCC1(c2ccc(OCc3ccccc3)cc2)CCC(=O)N1Cc1ccccc1	absorbance	23.6 µM
C=C(C)COC(=O)c1cc(NC(=O)c2ccoc2C)ccc1Cl		3.7 µg/mL
COCCNC(=O)COC(=O)c1c2c(nc3ccccc13)/C(=C\c1ccc(OC)cc1)CCC2	propidium iodide	>25 µM
O=C1C(=O)c2ccccc2C(O)=C1C1=C(Br)C(=O)c2ccccc2C1=O	MTT	5.2 µM